# Library screen at single concentrations

Measurements from “University of Dundee, Small-Polar-MMV Screening Library” (2021), ChEMBL document CHEMBL3988442.

A: 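Phenotypic screen: M. tuberculosis growth, glucose 7H9 medium, 3 days; the read-out is not stated. Compounds at 500 µM. The record gives no direction; compounds that gave an IC50 in retests scored well above the rest, so higher reads as more growth inhibition. Of about 18,000 compounds tested this way, about 1,400 (7.9%) reached 50% or more in at least one test.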
B: 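Phenotypic screen: M. tuberculosis growth, cholesterol and DPPC medium, 4 days; the read-out is not stated. Tested at 500 µM. Higher reads as more growth inhibition (inferred: compounds with an IC50 in retests scored well above the rest). Of about 18,000 compounds tested this way, about 900 (5%) reached 50% or more in at least one test.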

Results are given as percent effect.
The controls that fix the scale are not given in the record; negative values are as filed.
The entries come from a sample that favours strong results.

For Cc1nonc1CC(=O)N1CC[C@H]2CNC[C@H]21 the result was A: 9.538%. With CCc1ccccc1NC(=O)CN the screen gave A: -12.44%. Cc1n[nH]cc1CNCCNc1ncc(Cl)cc1Cl gave A: 54.98%; B: 28.29%. O=C1CN(C(=O)C2=Cc3cc(Cl)ccc3OC2)CCN1 gave B: -3.883%.

CCOCc1nnc(C(C)N)o1 (stereo unspecified) read A: -0.3396%. Cc1cc(NC(=O)NC(C)CN2CCOCC2)no1 (stereo unspecified) gave A: 14.64%. NC1CCCN(c2ccccn2)C1 (stereo unspecified) gave A: 7.585%; B: 10.41%. For N#Cc1cccc(C2CNCCO2)c1 (stereo unspecified) the result was A: 43.83%; B: 26.42%.

CNc1ncc(Br)s1 read A: -17.28%. For CCN(CC)S(=O)(=O)c1ccc(OC)c(NC(C)=O)c1 the result was A: 12.39%. Result for NC(=O)c1cccnc1-c1ccc(O)cc1 was A: 19.15%. NCC1(O)CCS(=O)(=O)C1 (stereo unspecified) gave B: 5.996%.

Result for CNC(C)CS(C)(=O)=O (stereo unspecified) was A: 3.74%. Result for CCn1cc(C(=O)Nc2ccccc2C(N)=O)c(C)n1 was A: 43.09%. CC(C)(C)CC(=O)NCCS(=O)(=O)N1CCSCC1 read A: 5.053%; B: 1.826%. For CN(C)c1ccc(C(=O)NCCC(O)C(F)(F)F)cc1 (stereo unspecified) the result was A: 33.33%.

CCn1cc(NC(=O)C2(NC(C)=O)CCCCC2)cn1 read B: -5.894%. With COCCNC(=O)c1cccc(NC(=O)C(C)(C)C)c1 the screen gave B: -1.023%. For c1nnc(C2CCNCC2)o1 the result was A: 7.588%. With CCOc1ccc(Cl)cc1C(N)=O the screen gave A: 30.21%.

For CNCc1nc2ccccc2n1CCO the result was A: 6.727%. For CCc1noc(CN2CCCC(CS(N)(=O)=O)C2)n1 (stereo unspecified) the result was A: 14.13%. OCCc1ccccc1CO gave A: 9.202%. Cc1nsc(N2CCCN(c3ccccn3)CC2)n1 gave A: 44.79%.

CCc1cc(C(=O)NCC2CCCNC2)cc(=O)[nH]1 (stereo unspecified) read A: -2.995%. Cc1cc(=O)n(C)cc1NC(=O)c1ccncc1Cl read A: -4.199%. For COCc1noc(CC(C)NC(=O)C2CCCC2)n1 (stereo unspecified) the result was B: -2.25%. CN(C)CC(=O)Nc1ccc2c(c1)C(O)CC2(C)C (stereo unspecified) gave A: -3.328%.

CCCN1CCCC(C(=O)Nc2cccc(C)n2)C1 (stereo unspecified) gave A: 11.84%. Result for CNS(=O)(=O)CC1CCCN1c1ncc(Br)cn1 (stereo unspecified) was A: 60.9%. Result for O=C1OCCN1C1CCNCC1 was A: -5.226%. CN(C)c1ncc(CN)n1C gave A: 4.421%.

For Cn1nc(CC#N)c2ccccc21 the result was B: -0.177%. For COC(=O)N1CCC(NC2CCOCC2)C1 (stereo unspecified) the result was A: 1.385%. Result for CCOc1cccc(Cn2cnc(CC)cc2=O)n1 was A: 75.83%; B: 61.19%. O=C(N[C@@H]1CCCNC1)c1nc2ccccn2c1F read A: 8.732%.

Result for CC(C)CCNC(=O)Nc1ccc(S(C)(=O)=O)cc1 was A: 65.79%; B: 73.24%. With N#CCCN1CCC(C(=O)NCc2ccccc2)CC1 the screen gave A: 2.514%. CSCCC(=O)NCc1ccc(C)s1 gave A: 62.21%. N[C@H]1CCN(C(=O)CCc2cc(F)ccc2F)C1 read A: 21.49%; B: 6.322%.

For N#Cc1ncn(CCOC(=O)Nc2ccccc2)n1 the result was A: 19.19%. With CC1CCCN1CCN (stereo unspecified) the screen gave A: -14.04%. With CNC(=O)c1cccc(CN(CC(C)(C)O)C(C)C)c1 the screen gave B: 5.546%. For CC1CCN(CC(=O)N(C)CCc2cnn(C)c2)C1=O (stereo unspecified) the result was A: -14.82%.

CC(Sc1nnc[nH]1)C(=O)Nc1ccc(F)cc1F (stereo unspecified) read A: -26.21%. Result for COc1ccc2oc(C(=O)NC(C)C(N)=O)c(C)c2c1 (stereo unspecified) was A: 7.445%. Result for Cc1nc(C(C)C)sc1C(=O)N[C@H]1CC[C@H]1N was A: 10.62%. Result for CNC(=O)c1ccc(S(=O)(=O)NC2CC2)o1 was B: -4.973%.

Repeated from the top, 5 entries:

{"smiles": "Cc1nonc1CC(=O)N1CC[C@H]2CNC[C@H]21", "A": 9.538}
{"smiles": "CCc1ccccc1NC(=O)CN", "A": -12.44}
{"smiles": "Cc1n[nH]cc1CNCCNc1ncc(Cl)cc1Cl", "A": 54.98, "B": 28.29}
{"smiles": "O=C1CN(C(=O)C2=Cc3cc(Cl)ccc3OC2)CCN1", "B": -3.883}
{"smiles": "CCOCc1nnc(C(C)N)o1", "stereo": "stereo unspecified", "A": -0.3396}